{"source": "PubChem BioAssay AID624099 (ICCB-Longwood, 2012)", "aim": "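Host factors E2 relies on to silence an HPV18 LCR reporter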 (primary screen)", "cell system": "human C33A cervical carcinoma cells (HPV-negative) stably expressing BPV1 E2 and an HPV18 LCR luciferase reporter", "knock-down reagent": "siRNA pool against human genes, 40 nM", "timing": "72 h", "measurement": "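Per-well luciferase luminescence, z-scored on each plate against the plate mean and SD with control wells left out, then averaged across three replicate plates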", "reading the numbers": "mean z-score and z-score: higher = stronger reporter signal, weaker E2 silencing", "rule for the call": "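Mean z ≥ 2 together with z ≥ 2 in two or more of the three replicates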", "note": "The whole screen tested about 21,000 reagents; shown is a part drawn at random. Of all reagents, 497 (2.4%) got an active call. 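Higher z means weaker E2 silencing; only reporter increases were scored, and knock-downs that hurt cell survival may mask genuine repressor factors.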 A number with no mark means an inactive call."}
{"Target gene": "IMPDH1 (inosine monophosphate dehydrogenase 1)", "mean z-score": 0.08, "z-score, replicate A": 0.26, "z-score, replicate B": 0.07, "z-score, replicate C": -0.08}
{"Target gene": "PDCD5 (programmed cell death 5)", "mean z-score": 0.42, "z-score, replicate A": 0.74, "z-score, replicate B": 0.06, "z-score, replicate C": 0.44}
{"Target gene": "C2CD5 (C2 calcium dependent domain containing 5)", "mean z-score": 0.86, "z-score, replicate A": 0.95, "z-score, replicate B": 0.83, "z-score, replicate C": 0.8}
{"Target gene": "TTC39B (tetratricopeptide repeat domain 39B)", "mean z-score": -1.48, "z-score, replicate A": -1.03, "z-score, replicate B": -1.63, "z-score, replicate C": -1.77}
{"Target gene": "ZNF420 (zinc finger protein 420)", "mean z-score": -0.05, "z-score, replicate A": 0.2, "z-score, replicate B": -0.01, "z-score, replicate C": -0.35}
{"Target gene": "TMX3 (thioredoxin related transmembrane protein 3)", "mean z-score": 0.38, "z-score, replicate A": 0.37, "z-score, replicate B": 0.35, "z-score, replicate C": 0.42}
{"Target gene": "ST13P4 (ST13, Hsp70 interacting protein pseudogene 4)", "mean z-score": 0.47, "z-score, replicate A": 0.96, "z-score, replicate B": -0.02, "z-score, replicate C": 0.46}
{"Target gene": "TOP3A (DNA topoisomerase III alpha)", "mean z-score": -0.76, "z-score, replicate A": -0.79, "z-score, replicate B": -0.76, "z-score, replicate C": -0.74}
{"Target gene": "ZNF251 (zinc finger protein 251)", "mean z-score": 1.95, "z-score, replicate A": 2, "z-score, replicate B": 1.51, "z-score, replicate C": 2.33}
{"Target gene": "YIF1B", "mean z-score": 0.69, "z-score, replicate A": 0.95, "z-score, replicate B": 0.26, "z-score, replicate C": 0.86}
{"Target gene": "ING3 (inhibitor of growth family member 3)", "mean z-score": 0.69, "z-score, replicate A": 0.83, "z-score, replicate B": 0.28, "z-score, replicate C": 0.96}
{"Target gene": "COX14 (cytochrome c oxidase assembly factor COX14)", "mean z-score": 1.68, "z-score, replicate A": 1.58, "z-score, replicate B": 1.48, "z-score, replicate C": 1.99}

Just “mean z-score”, for 2 of the entries above:
IMPDH1 (inosine monophosphate dehydrogenase 1): 0.08
PDCD5 (programmed cell death 5): 0.42
